The text below walks through data of PubChem BioAssay AID624379 (The Scripps Research Institute Molecular Screening Center, 2012).

Molecules are shown by their SMILES. The entries are a selection whose mix differs from that of the whole data set. The source made the active and inactive calls.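 The calls were made as follows: active = mean inhibition above a cutoff equal to the average over all tested compounds plus one standard deviation (cut at about 70% in these data); inactive = the rest.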

A short description of this assay: nonselective effects on VP16 transactivation – cell-based, luminescence, CHO-S, high throughput, counter-screen for NR2E3 agonist project, confirmation (AID 624379).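 Also: luciferase from a UAS reporter driven by GAL4-VP16 transactivation; 0% = DMSO with VP16-transfected cells and 100% = DMSO with cells lacking VP16; higher means less reporter light so more repression of VP16 activity.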 Conditions: CHO-S GAL4-VP16 luciferase reporter, at 3.98 µM, active compounds read high.
For `CCCCn1nnnc1C(c1ccccc1OC(F)(F)F)N1CCC(n2c(=O)[nH]c3ccccc32)CC1` (stereo unspecified), the inhibition was inactive: 3.7%.

By inhibition is commonly meant the percentage by which the read-out fell short of the control.
